Source: US10278869B2, “Apparatus for aspirating, irrigating and cleansing wounds” (SMITH & NEPHEW PLC, priority 2002, dated 2019)

Tested on: Staphylococcus epidermidis
Assay: Infusion of antibiotic from dialysate circuit to wound circuit, quantitative zone of inhibition assay
Conditions: over 230 min; 400 KD MWCO hollow fibre dialysis unit

With gentamycin sulphate the “gentamycin levels in the dialysate circuit” value was “steady decrease” and the “level of gentamycin in the wound circuit” value was “increases steadily over 230 min”.
